Data source: PubChem BioAssay AID1259414 (Drosophila RNAi Screening Center, 2018)
Purpose: 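Genome-wide screen for host control of endosymbiont load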 (primary screen). Cells: Drosophila JW18 cells infected with Wolbachia. Reagents: long dsRNA against Drosophila genes, 0.25 µg dsRNA per well of a 384-well plate. Duration: 5 days. Treatment: cells persistently infected with Wolbachia before knock-down; no added drug. Measurement: 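Automated imaging of bacterial rRNA staining divided by host cell count, reported as plate-normalised robust z-score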. Direction: Wolbachia per cell robust z: higher = more Wolbachia per host cell than the plate typical. Active means: 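Active if absolute robust z reaches 1.5 in two or more of three replicates, leaving out multi- or no-target dsRNAs, genes unexpressed in JW18 and A1 wells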.
The deposit covers about 24,000 reagents; shown is a random part of those that have a named target and a result. Over the whole deposit, about 1,210 (5%) got an active call. 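Inactive calls also include excluded dsRNAs with several or no targets, genes unexpressed in JW18, and well A1, regardless of score.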 Unmarked entries are inactive. Names joined by + are all predicted targets of the reagent.

no.	Gene	dsRNA	Wolbachia per cell robust z, rep 1	Wolbachia per cell robust z, rep 2	Wolbachia per cell robust z, rep 3
1	CG12347	DRSC14502	1.02	0.599	1.2
2	CG13484	DRSC10026	-1.58	0.394	-0.792
3	CG13484	DRSC26663	0.636	-0.301	-0.514
4	CG30114	DRSC05707	-0.483	-0.339	-3.79
5	CG30114	DRSC25433	-1.19	-1.11	-0.0944
6	CG7953	DRSC01902	-9	0.413	0.716
7	HIP-R + HIP	DRSC18245	-0.09	-5.74	0.0913
8	HIP-R + HIP	DRSC27912	0.657	-0.0158	0.641
9	HIP-R + HIP	DRSC38701	0.261	2.14	0.296
10	whe	DRSC20537	0.57	0.536	0.349
11	whe	DRSC26236	1.39	0.252	-2.39
12	dx	DRSC18767	-0.00895	-0.175	-0.868
13	dx	DRSC24880	-0.112	0.215	-0.279
14	Bug22	DRSC02842	-0.577	-2.29	0.373
15	CG14851	DRSC14975	-4.42	-1.71	0.763
16	CG14851	DRSC21500	-0.713	0.686	0.881
17	CG14851	DRSC27841	-1.32	0.0663	-0.264
18	AsnS	DRSC11468	-3.4	-0.336	0.211

Targets listed so far whose target name starts with C or c (9):
Gene	dsRNA	Wolbachia per cell robust z, rep 1	Wolbachia per cell robust z, rep 2	Wolbachia per cell robust z, rep 3
CG12347	DRSC14502	1.02	0.599	1.2
CG13484	DRSC10026	-1.58	0.394	-0.792
CG13484	DRSC26663	0.636	-0.301	-0.514
CG30114	DRSC05707	-0.483	-0.339	-3.79
CG30114	DRSC25433	-1.19	-1.11	-0.0944
CG7953	DRSC01902	-9	0.413	0.716
CG14851	DRSC14975	-4.42	-1.71	0.763
CG14851	DRSC21500	-0.713	0.686	0.881
CG14851	DRSC27841	-1.32	0.0663	-0.264

The list goes on.
no.	Gene	dsRNA	Wolbachia per cell robust z, rep 1	Wolbachia per cell robust z, rep 2	Wolbachia per cell robust z, rep 3
19	CG14740	DRSC14960	-0.36	0.0409	-2.12
20	CG6951	DRSC10755	-0.707	0.574	0.674
21	CG7140	DRSC11799	0.729	0.58	0.947
22	CG4270	DRSC00648	0.764	0.629	0.632
23	milt	DRSC00965	-0.992	-1.27	-1.93
24	milt	DRSC00966	-0.576	-0.738	-0.705
25	milt	DRSC02281	-0.252	0.543	-0.66
26	milt	DRSC28963	0.498	-0.875	-2.03
27	milt	DRSC41278	0.191	-1.7	-0.127
28	CG33500	DRSC09115	1.51	2.11	0.632
29	CG31300	DRSC14657	0.114	0.55	-1.7
30	CG31300	DRSC25696	-1.36	1.36	-0.0908
31	Atg14	DRSC14421	0.771	-0.774	0.161
32	Atg14	DRSC27166	-0.761	-0.369	0.867
33	CG9691	DRSC18441	0.889	-1.66	0.514
34	CG12288	DRSC02155	-0.0125	-0.712	-0.0721
35	MED6	DRSC16500	-0.455	-0.262	0.647
36	salto	DRSC06291	-4.2	-6.82	-1.72
37	salto	DRSC29983	-6.3	0.894	0.21
38	PpN58A	DRSC04642	0.0506	-1.82	-0.827
39	PpN58A	DRSC28243	-0.792	0.376	0.923
40	PpN58A	DRSC41567	-1.06	-0.111	0.914
41	CG31769	DRSC01361	-0.00455	-1.29	-9.58
42	CG9512	DRSC20189	-0.00813	0.452	-0.246
43	Bap55	DRSC07000	0.844	0.951	0.698
44	atk	DRSC11418	-2.66	1.1	0.418
45	atk	DRSC11769	0.194	1.29	-1.17
46	atk	DRSC26412	1.51	1.32	0.73
